This experiment relates to S. gordonii. The settings on record: downregulated, low vs high arginine; average across the locus.

For the molecule `N=C(N)NCCC[C@H](N)C(=O)O` [L-arginine], the “Fold Change, SGO_1575-1582 Bfb locus, biofilm formation and cellobiose PTS” value was −30.2.

These data come from patent US10570401B2, “Compositions and method for destabilizing, altering, and dispersing biofilms” (priority 2013, dated 2020).
